Pooled drug test results. Numbers come from NIAID ChemDB, via PubChem.

Common to all: growth or infection tests; species: Mycobacterium tuberculosis

Conditions beyond the fields shown may differ between rows. ECn is the concentration giving n% inhibition of infection, replication or growth. An empty or dashed field is not shown. MIC bound: limit read from a one-dose screen. a–b is a range or a potency band. Inhibition is in % at the dose shown (toxicity tests: loss of growth or viability). A number after MIC or MFC names an inhibition level or a share of isolates.

SMILES | method | dose | strain or isolate | setting | endpoint | value
Nc1ncnc2c1c(-c1cccc3c1oc1ccccc13)cn2[C@@H]1O[C@H](CO)[C@@H](O)[C@H]1O | broth dilution | - | Praha 131 | - | MIC | 16 µM
O=C1NC(=NCc2ccccc2)N/C1=C\c1ccc(Cl)cc1Cl | - | 12.5 µg/mL | H37Rv | - | inhibition | 46%
CC(=O)c1ccc(N2CCN(C(=O)c3cc(Cl)cc(Cl)c3)CC2)cc1 | turbidity | - | BioA overexpression strain | - | MIC50 | >50 µM
O=[n+]1c(CO)c(CO)n([O-])c2ccccc21 | - | - | H37Rv | - | MIC | 31.2 µg/mL
CC(=O)c1ccc(N2CCN(C(=O)c3cccc(Cl)c3)CC2)cc1 | turbidity | - | Wild type without biotin | - | MIC90 | 48.8 µM
CCSC(=O)c1ccco1 | - | - | H37Rv | - | MIC | 50 µg/mL
O=C(c1cccc(Cl)c1)N1CCN(c2ccc(-c3ccccn3)cc2)CC1 | turbidity | - | BioA overexpression strain | - | MIC50 | >50 µM
NNC(=O)CCc1ccccc1O | BACTEC | - | H37Rv | - | MIC bound | >12.5 µg/mL
COc1cccc(NC(=O)c2ccc(S(C)=O)o2)c1 | - | - | H37Rv | - | MIC90 | 200 µg/mL
c1ccc(CCN2CCN([C@@H](Cc3ccccc3)CN3CCCC3CN3CCNC[C@@H]3Cc3ccccc3)C[C@H]2Cc2ccccc2)cc1 | broth dilution | - | H37Rv | - | MIC | 3.9 µg/mL
O=C1NC(Nc2ccccc2)=N/C1=C\c1ccccc1Cl | - | - | H37Rv | - | MIC | >12.5 µg/mL
CCOC(=O)c1ccc(NC(=O)C(CC(=O)Nc2ccccc2)C(C)=O)cc1 | - | 5 µg/mL | H37Rv | - | inhibition | 0%
COc1ccc(-c2oc3cc(O)cc(O)c3c(=O)c2OC)cc1 | BACTEC | - | H37Rv | - | EC50 | <100 µg/mL
COc1cc(Cc2cnc(N)nc2N)cc(Br)c1OC | - | - | Var. hominis | - | MIC | >1000 µg/mL
Cn1cc([N+](=O)[O-])nc1C(=O)NCc1ccccn1 | - | - | H37Rv | - | MIC90 | >200 µg/mL
O=C1NC(Nc2cccc(Cl)c2)=N/C1=C\c1ccc(Cl)cc1Cl | - | - | H37Rv | - | MIC | >6.25 µg/mL
CCN(CC)CCCC(C)Nc1cc(C)nc2ccc(N(C)C)cc12 | BACTEC | 12.5 µg/mL | H37Rv | - | inhibition | 0%
CCCCCc1ccc(-c2cn(CC(=O)N3c4ccccc4Sc4ccc(C(F)(F)F)cc43)nn2)cc1 | agar | - | H37Rv | - | MIC100 | 25 µg/mL
CC(=O)N(O)CCCP(=O)(O)O | - | - | Dxr | - | MIC | >500 µg/mL
Cc1ccc(Nc2nc3c(s2)C(=O)c2ccccc2C3=O)c(C)c1 | BACTEC | - | H37Rv | - | MIC | 1.6 µg/mL
CO[C@H]1/C=C/O[C@@]2(C)Oc3c(C)c(O)c4c(O)c(c(/C=N/OC(C)C)c(O)c4c3C2=O)NC(=O)/C(C)=C\C=C\[C@H](C)[C@H](O)[C@@H](C)[C@@H](O)[C@@H](C)[C@H](OC(C)=O)[C@@H]1C | - | - | H37Rv | - | MIC | 0.05 µg/mL
c1ccc(CCN2CCN([C@@H](Cc3ccccc3)CN3CCCC3CN3CCNC[C@@H]3Cc3ccccc3)C[C@@H]2Cc2ccccc2)cc1 | broth dilution | - | H37Rv | - | MIC | 2 µg/mL
Cc1nc2ccc(NC3OC(CO)C(O)C(O)C3O)cc2c(=O)n1-c1ccccc1 | resazurin | - | H37Rv | - | MIC bound | >6.25 µg/mL
CCSC1=CSCN1 | - | - | H37Rv | - | MIC | 50 µg/mL
CCOCCO/N=C/c1c2c(O)c3c(O)c(C)c4c(c3c1O)C(=O)[C@@](C)(O/C=C/[C@H](OC)[C@@H](C)[C@@H](OC(C)=O)[C@H](C)[C@H](O)[C@H](C)[C@@H](O)[C@@H](C)/C=C/C=C(/C)C(=O)N2)O4 | - | - | H37Rv | - | MIC | 0.2 µg/mL
Cc1c(C)[n+](=O)c2ccccc2n1[O-] | - | - | H37Rv | - | MIC | 31.2 µg/mL
O=c1cnn([C@@H]2O[C@H](CO)[C@@H](O)[C@H]2O)c(=O)[nH]1 | resazurin | 6.25 µg/mL | H37Rv | - | inhibition | -26%
CCCO/N=C/c1c2c(O)c3c(O)c(C)c4c(c3c1O)C(=O)[C@@](C)(O/C=C/[C@H](OC)[C@@H](C)[C@@H](OC(C)=O)[C@H](C)[C@H](O)[C@H](C)[C@@H](O)[C@@H](C)/C=C/C=C(/C)C(=O)N2)O4 | - | - | H37Rv | - | MIC | 0.05 µg/mL
CCOc1ccc(NC(=O)CC(C(C)=O)C(=O)Nc2cccc3ccccc23)cc1 | - | 30 µg/mL | H37Rv | - | inhibition | 0%
COc1cc(-c2ccc(N=Nc3ccc(N)nc3N)c(OC)c2)ccc1N=Nc1ccc(N)nc1N | BACTEC | - | H37Rv | - | MIC bound | >12.5 µg/mL
COc1ccc(NC(=O)CC(C(C)=O)C(=O)Nc2cccc3ccccc23)cc1 | - | 5 µg/mL | H37Rv | - | inhibition | 0%
CCOC(=O)c1sc(N/N=C/c2ccc([N+](=O)[O-])cc2)nc1C | resazurin | - | H37Rv | - | MIC80 | >200 µM
CC(C)=CC(=O)O[C@@H]1[C@H]2C(C)=CC(=O)C(O)[C@]2(C)[C@H]2[C@@]3(O)OC[C@@]24[C@@H]1OC(=O)C[C@H]4[C@@H](C)[C@H]3O | BACTEC | 12.5 µg/mL | H37Rv | - | inhibition | 9%
CCOC(=O)c1ccc(NC(=O)C(CC(=O)Nc2ccccc2Cl)C(C)=O)cc1 | - | 30 µg/mL | H37Rv | - | inhibition | 0%
S=C1NCCNC(=S)SSC(=S)SS1 | BACTEC | 12.5 µg/mL | H37Rv | - | inhibition | 100%
CC(=O)c1ccc(N2CCC(C(=O)c3cccc(Cl)c3)CC2)cc1 | turbidity | - | BioA overexpression strain | - | MIC90 | >50 µM
[2H]C([2H])([2H])OC(=O)N/C=C/CCCc1cc(O)c(C(=O)/C(C)=C/c2cnc(Oc3ccc(-c4ccccc4)cc3)s2)c(=O)o1 | fluorescence | - | H37Rv | - | MIC | >50 µg/mL
COc1ccccc1Nc1nc(-c2ccc([N+](=O)[O-])o2)cs1 | BACTEC | - | H37Rv | - | MIC bound | >12.5 µg/mL
CCCCOc1ccc(NC(=S)Nc2ccc(N(C)C)cc2)cc1 | - | - | H37RV #164 | - | MIC | 3.9 µg/mL
CC(=O)c1ccc(N2CCN(C(=O)c3ccc4c(c3)OCCO4)CC2)cc1 | turbidity | - | BioA overexpression strain | - | MIC50 | >50 µM
CCOC(=O)SCC | - | - | H37Rv | - | MIC | >100 µg/mL
COC(=O)[C@@]12OC[C@]34[C@H]([C@@H](O)[C@@H]1O)[C@@]1(C)CC(=O)C(O)=C(C)[C@@H]1C[C@H]3OC(=O)[C@H](OC(=O)C=C(C)C)[C@@H]24 | BACTEC | 12.8 µg/mL | H37Rv | - | inhibition | 3%
CC(=O)C(CC(=O)Nc1ccc(Cl)cc1)C(=O)Nc1cccc2ccccc12 | - | 30 µg/mL | H37Rv | - | inhibition | 0%
O[C@@H]([C@H](O)[C@H](O)CN=Cc1ccc(Cl)cc1)[C@H](O)CN=Cc1ccc(Cl)cc1 | - | - | H37Rv (ATCC 27294) | - | MIC | >100 µg/mL
Cc1cc(=O)oc2c(-c3ccccc3)n[nH]c(=O)c12 | BACTEC | - | H37Rv | - | MIC bound | >12.5 µg/mL
CCC(S)CCO | - | - | H37Rv | - | MIC | >100 µg/mL
O=C(Nc1nnc(-c2coc3ccccc3c2=O)s1)c1ccccc1 | BACTEC | - | H37Rv | - | MIC bound | >12.5 µg/mL
COc1ccc(CNC(=O)c2nc([N+](=O)[O-])cn2C)c(OC)c1 | - | - | H37Rv | - | MIC90 | >200 µg/mL
CC(=O)c1ccc(N2CCN(C(=O)CC(C)C)CC2)cc1 | turbidity | - | BioA underexpression strain | - | MIC50 | >50 µM
CCOC(=O)c1c(C)n([O-])c2ccccc2[n+]1=O | - | - | H37Rv | - | MIC | 31.2 µg/mL
O=C(NC(Cc1ccccc1)C(=O)NC(CO)C(=O)O)OCc1ccccc1 | BACTEC | 12.8 µg/mL | H37Rv | - | inhibition | 27%
CCSSC(C)(C)CC | - | - | H37Rv | - | MIC | 50 µg/mL
CC12CCC(C(=O)OC1=O)C2(C)C | resazurin | 6.25 µg/mL | H37Rv | - | inhibition | -29%
O=[N+]([O-])c1ccc(C=NC[C@@H](O)[C@@H](O)[C@H](O)[C@H](O)CN=Cc2ccc([N+](=O)[O-])cc2)cc1 | - | - | H37Rv (ATCC 27294) | - | MIC | 25 µg/mL
c1cnn(P2(n3cccn3)=NP(n3cccn3)(n3cccn3)=NP(n3cccn3)(n3cccn3)=NP(n3cccn3)(n3cccn3)=NP(n3cccn3)(n3cccn3)=NP(n3cccn3)(n3cccn3)=N2)c1 | resazurin | - | H37Rv | - | MIC bound | >6.25 µg/mL
CN[C@@H]1[C@H](O[C@H]2[C@H](O[C@H]3[C@H](O)[C@@H](O)[C@H](N=C(N)N)[C@@H](O)[C@@H]3N=C(N)N)O[C@@H](C)[C@]2(O)C=O)O[C@@H](CO)[C@H](O)[C@H]1O | - | - | 76 | - | MIC | 4 µg/mL
NC[C@H]1O[C@H](O[C@H]2[C@H](O)[C@@H](O[C@H]3O[C@H](CO)[C@@H](O)[C@H](N)[C@H]3O)[C@H](N)C[C@@H]2N)[C@H](O)[C@@H](O)[C@@H]1O | - | - | H2 | - | MIC | 1 µg/mL
O[C@@H]([C@H](O)[C@H](O)CN=Cc1cccc(Cl)c1)[C@H](O)CN=Cc1cccc(Cl)c1 | - | - | H37Rv (ATCC 27294) | - | MIC | >100 µg/mL
CO[C@H]1/C=C/O[C@@]2(C)Oc3c(C)c(O)c4c(O)c(c(/C=N/OC(C(=O)O)C(C)C)c(O)c4c3C2=O)NC(=O)/C(C)=C\C=C\[C@H](C)[C@H](O)[C@@H](C)[C@@H](O)[C@@H](C)[C@H](OC(C)=O)[C@@H]1C | - | - | H37Rv | - | MIC | 2 µg/mL
O=[N+]([O-])c1cccc(C=NC[C@@H](O)[C@@H](O)[C@H](O)[C@H](O)CN=Cc2cccc([N+](=O)[O-])c2)c1 | - | - | H37Rv (ATCC 27294) | - | MIC | 25 µg/mL
COc1cc2oc(-c3ccc(O)cc3)c(OC3OC(C)C(O)C(O)C3O)c(=O)c2c(O)c1OC | BACTEC | - | H37Rv | - | MIC | ≥12.8 µg/mL
c1ccc(P(CCc2ccccn2)c2ccccc2)cc1 | broth dilution / visual reading | - | H37Rv | 7 d | MIC99 | 160 µM
CC(=O)C(CC(=O)Nc1ccccc1Cl)C(=O)Nc1cccc2ccccc12 | - | 5 µg/mL | H37Rv | - | inhibition | 0%
COC(OC)c1c[n+](=O)c2ccccc2n1[O-] | - | - | H37Rv | - | MIC | 15.6 µg/mL
CC(C)OC(=O)N1CCN(c2ccc(CNC(=O)c3ccc([N+](=O)[O-])o3)cc2)CC1 | - | - | H37Rv | - | MIC90 | 0.05 µg/mL
COc1ccc(CC2c3cc(OC)c(OC)c(OC)c3CC[N+]2(C)C)cc1Oc1ccc(CC2c3cc4c(c(OC)c3CCN2C)OCO4)cc1.[OH-] | BACTEC | - | H37Rv | - | MIC | ≥12.5 µg/mL
OCC(CN1CCN([C@@H](Cc2ccccc2)CN2CCCC2CN2CCNC[C@@H]2Cc2ccccc2)C[C@@H]1Cc1ccccc1)c1ccccc1 | broth dilution | - | H37Rv | - | MIC | 3.9 µg/mL
CCCCCO/N=C/c1c2c(O)c3c(O)c(C)c4c(c3c1O)C(=O)[C@@](C)(O/C=C/[C@H](OC)[C@@H](C)[C@@H](OC(C)=O)[C@H](C)[C@H](O)[C@H](C)[C@@H](O)[C@@H](C)/C=C/C=C(/C)C(=O)N2)O4 | - | - | H37Rv | - | MIC | 1 µg/mL
O=C1NC(=Nc2ccccc2Cl)N/C1=C\c1ccc(Cl)cc1Cl | - | - | H37Rv | - | MIC | >6.25 µg/mL
O=C1CCc2cc(N3CCN(C(=O)c4cccc(Cl)c4)CC3)ccc21 | turbidity | - | BioA underexpression strain | - | MIC90 | 0.9 µM
Nc1cc(Cl)c(Cl)cc1S(=O)(=O)O | resazurin | 6.25 µg/mL | - | - | inhibition | -20%
CCOC(=O)c1ccc(NC(=O)C(CC(=O)Nc2cccc(Cl)c2)C(C)=O)cc1 | - | 5 µg/mL | H37Rv | - | inhibition | 0%
CC(C)CCOc1ccc(NC(=S)Nc2ccc(OCCC(C)C)cc2)cc1 | - | - | Isolates ethionamide/thioacetazone-resistant | - | MIC | 0.5–10 µg/mL
CC(=O)C(CC(=O)Nc1ccc(C)cc1)C(=O)Nc1cccc2ccccc12 | - | 5 µg/mL | H37Rv | - | inhibition | 0%
O=C1OCc2cc(N3CCN(C(=O)c4cccc(Cl)c4)CC3)ccc21 | turbidity | - | BioA underexpression strain | - | MIC90 | 22.8 µM
O=C1CCc2ccc(cc2)Oc2cc(ccc2O)CCCO1 | resazurin | - | H37Rv | - | EC50 | >100 µg/mL
Oc1ccccc1-c1nnc2sc3c(Cl)c4nn5c(-c6ccccc6O)nnc5sc4c(Cl)c3nn12 | BACTEC | - | H37Rv | - | MIC | ≥12.5 µg/mL
Cn1cc([N+](=O)[O-])cc1C(=O)NCc1ccccn1 | - | - | H37Rv | - | MIC90 | >200 µg/mL
CCOC(=O)C1=C(NC(C)(C)C)OC/C1=N/NC(=O)Cc1ccccc1 | BACTEC | - | H37Rv | - | MIC bound | >12.5 µg/mL
COc1ccc(Cc2cnc(N)nc2N)cc1OC | - | - | Var. hominis | - | MIC | 500 µg/mL